Pooled drug test results. Numbers come from NIAID ChemDB, via PubChem.

Common to all: tests in culture; organism: Candida albicans

A number after MIC or MFC names an inhibition level or a share of isolates. Neighbouring rows are from separate reports. Inhibition is in % at the dose shown (toxicity tests: loss of growth or viability). An empty or dashed field is not shown. ECn: concentration that inhibits the pathogen or its effect by n%.

structure,strain or isolate,read by,setting,measure,tested at,value
COC(=O)[C@H]1[C@@H]2C[C@@H](O[C@@H]3O[C@H](C)[C@@H](O)[C@H](N)[C@@H]3O)/C=C/C=C/C=C/C=C/C=C/C=C/C=C/[C@H](C)[C@@H](O)[C@H](C)[C@H](C)OC(=O)C[C@H](O)C[C@H](O)[C@@H](O)CC[C@H](O)C[C@H](O)C[C@](O)(C[C@@H]1O)O2,10 isolates,broth dilution,pH 5,EC90,,4 µg/mL
C[C@@H](N1CCN(Cc2cn(Cc3ccc(F)cc3F)c3ccccc23)CC1)[C@](O)(Cn1cncn1)c1ccc(F)cc1F,ATCC 64548,resazurin,,MIC80,,0.25 µg/mL
CC(C)(O)c1cn(-c2ccc([N+](=O)[O-])cc2)nn1,URM 4987,broth dilution,,inhibition,2048 µg/mL,0%
C=CCc1ccc(OC)c(OC)c1,2427,turbidity,,MIC90,,350 µg/mL
C[C@@H](N1CCN(Cc2cn(Cc3ccc(Cl)cc3Cl)c3c(F)cccc23)CC1)[C@](O)(Cn1cncn1)c1ccc(F)cc1F,ATCC MYA-1003,resazurin,,MIC80,,>128 µg/mL
C[C@@H](c1ncncc1F)[C@](O)(Cn1cncn1)c1ccc(F)cc1F,15 isolates,broth dilution,pH 7,EC90,,0.03 µg/mL
OC(CN1CCN(c2ccc(OCc3ccncc3)cc2)CC1)(Cn1cncn1)c1ccc(F)cc1F,SC5314,,,MIC80,,0.016 µg/mL
CCC(C)n1ncn(-c2ccc(N3CCN(c4ccc(OC[C@H]5CO[C@](Cn6cncn6)(c6ccc(Cl)cc6Cl)O5)cc4)CC3)cc2)c1=O,10 isolates,broth dilution,pH 6,EC90,,0.06 µg/mL
C=CCc1ccc(Cn2cc(CN3CCN([C@H](C)[C@](O)(Cn4cncn4)c4ccc(F)cc4F)CC3)c3cccc(F)c32)cc1,ATCC 64548,resazurin,,MIC80,,0.125 µg/mL
NCCCC[C@H](NC(=O)[C@H](CCCN=C(N)N)NC(=O)[C@H](CCCN=C(N)N)NC(=O)[C@H](CCCCN)NC(=O)[C@H](CCCCN)NC(=O)[C@@H](N)CCCCN)C(=O)N[C@@H](CCCN=C(N)N)C(=O)O,ATCC 10231,,,inhibition,200 µM,43%
C[C@@H](N1CCN(Cc2cn(Cc3ccc(C(F)(F)F)cc3)c3cc(Cl)ccc23)CC1)[C@](O)(Cn1cncn1)c1ccc(F)cc1F,ATCC 64548,resazurin,,MIC80,,0.125 µg/mL
NC(=NC1CCCC1)c1ccc(-c2ccc(-c3ccc(C(N)=NC4CCCC4)cc3)o2)cc1,Isolate CA1548,,,MFC,,100 µg/mL
CC(O)Cc1ccc(Cn2cc(CN3CCN([C@H](C)[C@](O)(Cn4cncn4)c4ccc(F)cc4F)CC3)c3ccccc32)cc1,ATCC 90028,resazurin,,MIC80,,4 µg/mL
Cc1ccc(-n2cc(C(C)(C)O)nn2)cc1C,URM 4260,broth dilution,,inhibition,2048 µg/mL,0%
CCC(C)CC(C)CCCCCCCCC(=O)N[C@H]1C[C@@H](O)[C@H](NCCN)NC(=O)[C@@H]2[C@@H](O)CCN2C(=O)[C@H]([C@H](O)CCN)NC(=O)[C@H]([C@H](O)[C@@H](O)c2ccc(O)cc2)NC(=O)[C@@H]2C[C@@H](O)CN2C(=O)[C@H]([C@@H](C)O)NC1=O,15 isolates,broth dilution,pH 5,EC90,,0.06 µg/mL
CC(C)(O)c1cn(-c2ccccc2)nn1,URM 4127,broth dilution,,inhibition,2048 µg/mL,0%
CCCCCOc1ccc(-c2cc(-c3ccc(C(=O)N[C@H]4C[C@@H](O)[C@@H](O)NC(=O)[C@@H]5[C@@H](O)[C@@H](C)CN5C(=O)[C@H]([C@H](O)CC(N)=O)NC(=O)[C@H]([C@H](O)[C@@H](O)c5ccc(O)c(OS(=O)(=O)O)c5)NC(=O)[C@@H]5C[C@@H](O)CN5C(=O)[C@H]([C@@H](C)O)NC4=O)cc3)no2)cc1,12 isolates,,,MFC90,,0.25 µg/mL
CC(C)(O)c1cn(-c2ccc3ccccc3c2)nn1,URM 4386,broth dilution,,inhibition,2048 µg/mL,0%
C[C@@H](N1CCN(Cc2cn(Cc3ccc(F)cc3F)c3c(Cl)cccc23)CC1)[C@](O)(Cn1cncn1)c1ccc(F)cc1F,ATCC 64548,resazurin,,MIC80,,0.125 µg/mL

The last 3 rows once more:

structure,strain or isolate,read by,setting,measure,tested at,value
CCCCCOc1ccc(-c2cc(-c3ccc(C(=O)N[C@H]4C[C@@H](O)[C@@H](O)NC(=O)[C@@H]5[C@@H](O)[C@@H](C)CN5C(=O)[C@H]([C@H](O)CC(N)=O)NC(=O)[C@H]([C@H](O)[C@@H](O)c5ccc(O)c(OS(=O)(=O)O)c5)NC(=O)[C@@H]5C[C@@H](O)CN5C(=O)[C@H]([C@@H](C)O)NC4=O)cc3)no2)cc1,12 isolates,,,MFC90,,0.25 µg/mL
CC(C)(O)c1cn(-c2ccc3ccccc3c2)nn1,URM 4386,broth dilution,,inhibition,2048 µg/mL,0%
C[C@@H](N1CCN(Cc2cn(Cc3ccc(F)cc3F)c3c(Cl)cccc23)CC1)[C@](O)(Cn1cncn1)c1ccc(F)cc1F,ATCC 64548,resazurin,,MIC80,,0.125 µg/mL